This is a selection; strong and weak results do not stand in their true shares. Active and inactive are the calls of the source.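 Rule for the calls: active = inhibition above 30.3% in the primary screen of four-compound pools, then above 30% when the compound was retested; inconclusive = passed the primary limit but could not be retested; inactive = the rest.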
test: Candida albicans biofilm persister killing – 4-compound mixtures, primary screen (AID 1242);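 note: compounds exposed to preformed 24 h biofilms for 48 h; 0% = untreated biofilm control and 100% = clotrimazole plus chlorhexidine kill blank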; settings: C. albicans biofilm persisters + clotrimazole, fluorescence viability; primary screen in compound mixtures of four per well; at 7.6 µM; active compounds read high
Summary of the method: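 System: C. albicans CAF4-2 wild-type biofilms; Medium: RPMI/MOPS medium, pH 7.0; Reagent: Clotrimazole, 50 µg/mL; Times: biofilm formation 24 h, compound exposure 48 h, 37 °C; Detection: 2-h Alamar Blue fluorescence, 535/590 nm excitation/emission; Evaluation: percent inhibition of biofilm viability.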

| SMILES | inhibition |
| --- | --- |
| N#Cc1ccc(C(=O)NCC2(N3CCCCC3)CCCCC2)cc1 | inactive: 16.7% |
| O=C(OC1CN2CCC1CC2)C1c2ccccc2C=Cc2ccccc21 (stereo not given) | inactive: 13.9% |
| COc1ccc(C(=O)NCC2(N3CCOCC3)CCCCC2)cc1OC | inactive: 15.2% |
| COc1cc(OC)cc(C(=O)NCC2(N3CCOCC3)CCCCC2)c1 | inactive: 12.9% |
| CCCOc1ccc(C)cc1CN(CCCl)CCCl | inactive: 13.2% |
| CC(C)(C)OC(=O)N1CCC(Nc2ccccc2)CC1 | inactive: 7.45% |
| CCN1CCC(Nc2cccc(F)c2)CC1 | inactive: 14.8% |
| CN(C)c1ccc(C(=O)NCC2(N3CCCCC3)CCCCC2)cc1 | inactive: 7.46% |
| Fc1ccccc1NC1CCN(Cc2ccccc2)CC1 | inactive: 9.31% |
| Cc1ccc(OCC(C)C)c(CN(CCCl)CCCl)c1 | inactive: 21.5% |
| CCOc1ccc(C)cc1CN(CCCl)CCCl | inactive: 12.8% |
| N#CC1(Nc2ccccc2)CCN(Cc2ccccc2)CC1 | inactive: 15% |
| CCOC(=O)N1CCC(Nc2ccc(OC)cc2)CC1 | inactive: 7.02% |
| COc1ccc(C(=O)NCC2(N3CCCCC3)CCCCC2)c(OC)c1OC | inactive: 12.7% |
| CC(C)c1ccc(NC2CCN(C(=O)OC(C)(C)C)CC2)cc1 | inactive: 1.12% |
| CN(C)c1cccc(C(=O)NCC2(N3CCCCC3)CCCCC2)c1 | inactive: 9.33% |
| COc1ccc(CN(CCCl)CCCl)cc1Cl | inactive: 13.6% |
| CN1CCN(CCOC(=O)C(O)(c2ccccc2)c2ccccc2)CC1 | inactive: 14% |
| COc1ccc(NC2CCN(C(=O)OC(C)(C)C)CC2)cc1 | inactive: -1.73% |
| O=C(NCC1(N2CCCCC2)CCCCC1)c1cccc([N+](=O)[O-])c1 | inactive: 7.41% |

Source: PubChem BioAssay AID1242 (PCMD, 2008)
